# Primary screen of a compound library

From ChEMBL document CHEMBL3988442, “University of Dundee, Small-Polar-MMV Screening Library” (2021).

Values are the deposited “Percent Effect”, in %. The record does not define 0% and 100%; most values in the screen are far below 50% and negative numbers occur (in some assays of this library far below -100). Many other results are left out here, so strong results are more common than in the screen. A dash means the value is not listed here; it may have been measured.

Mtb glucose medium: 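Whole-cell growth test on Mycobacterium tuberculosis, read after 3 days in glucose-containing 7H9 medium; the read-out is not stated. Compounds at 500 µM. Direction is inferred from retests: higher values go with more growth inhibition. Of about 18,000 compounds tested this way, about 1,400 (7.9%) reached 50% or more in at least one test.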
Mtb cholesterol medium: 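Whole-cell growth test on Mycobacterium tuberculosis, read after 4 days in a medium based on cholesterol and the lipid DPPC; the read-out is not stated. Compounds at 500 µM. The record gives no direction; compounds that gave an IC50 in retests scored well above the rest, so higher reads as more growth inhibition. Size under these conditions: about 18,000 compounds, about 900 of them at 50% or above in at least one test.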

| # | Compound | Mtb glucose medium | Mtb cholesterol medium |
|---|---|---|---|
| 1 | `CCC(O)COc1cc(C)ccc1C(N)=O` (configuration not stated) | 12.48 | - |
| 2 | `c1ccc(CNC2CCCNCC2)cc1` (configuration not stated) | - | 12.87 |
| 3 | `COCCN1CCCC(C(=O)NCC(F)(F)F)C1` (configuration not stated) | -12.27 | - |
| 4 | `CNC(=O)CCC(C)(C)NC(=O)c1ccc(COC)s1` | - | -0.6443 |
| 5 | `O=c1ccc(-c2noc(C3CCCC3)n2)c[nH]1` | 2.329 | - |
| 6 | `O=C1CN(c2ccnc3cc(Br)ccc23)CCN1` | - | 31.56 |
| 7 | `O=C1NCCC1C1(O)CCOCC1` (configuration not stated) | - | -1.022 |
| 8 | `O=S(=O)(Cc1ccc(Cl)cc1)c1ccccn1` | - | 27.84 |
| 9 | `CN(Cc1nc(C2CCOC2)no1)C1CCNCC1` (configuration not stated) | 8.795 | - |
| 10 | `CN(C)CCCNC(=O)c1cc2ccccc2[nH]1` | - | 16.48 |
| 11 | `c1cncc(C2=NCCCC2)c1` | -205.4 | - |
| 12 | `O=C(NCc1nc(C2CC2)no1)Nc1nncs1` | - | -6.759 |
| 13 | `COCC(C)NC(=O)CNc1ccc(OC)c(Br)c1` (configuration not stated) | 73.1 | 74.64 |
| 14 | `CCSCCNC(=O)c1ccc(-n2ccnc2)cc1` | - | 18.85 |
| 15 | `COc1ccc(-n2c(C)n[nH]c2=O)cc1Cl` | 7.863 | - |
| 16 | `CC(C)(C)N1CCCN(C(=O)c2cc(Cl)c[nH]2)CC1` | 13.21 | 1.244 |
| 17 | `CCC(=O)c1cc(N)on1` | - | -12.81 |
| 18 | `COc1ccc(N(C)CCCO)cc1OC` | - | 7.578 |
| 19 | `CCCNC(=O)C1=NN(C)C(=O)CC1` | 5.881 | - |
| 20 | `Cc1nc(C)c(C(=O)N2CC[C@H](CO)[C@H](O)C2)s1` | 7.253 | - |
| 21 | `CC(Cc1ccco1)NC(=O)C1CCN(C(N)=O)CC1` (configuration not stated) | - | 6.237 |
| 22 | `CC(C)NC1CCCc2cccnc21` (configuration not stated) | 6.96 | - |
| 23 | `Cc1ccsc1C(=O)N(C)CC(=O)NC1CC1` | - | 3.04 |
| 24 | `CSCC(N)c1ccccc1` (configuration not stated) | 36.41 | - |
| 25 | `Cc1ccc(NC(=O)N2CCC(O)C2)cc1OC(F)F` (configuration not stated) | 32.68 | 18.81 |
| 26 | `CCn1c(C(N)=O)cc2ccccc21` | 28.37 | - |
| 27 | `CNS(=O)(=O)c1ccccc1S(=O)(=O)NC1CCOC1` (configuration not stated) | 2.926 | - |
| 28 | `NS(=O)(=O)c1ccc(NC(=O)Cn2ccnc2)cc1` | -11.14 | 71.74 |
| 29 | `CCOC(=O)CNC(C)(C)C` | - | -2.206 |
| 30 | `CCCNC(=O)Nc1ccc2c(c1)OCCO2` | 33.09 | 37.74 |
| 31 | `CCCS(=O)(=O)NCc1cc[nH]n1` | 2.111 | - |
| 32 | `CC(=O)N1CCC(Cc2ccc(C(N)=O)cc2)CC1` | - | 4.989 |
| 33 | `COc1cccc(C2(F)CCNCC2)c1` | 36.95 | 17.23 |
| 34 | `CCCc1ncncc1C(=O)NCc1cnc(C)cn1` | 0.5911 | - |
| 35 | `CC1CN(C(=O)c2cnsn2)c2cccc(Cl)c2O1` (configuration not stated) | 54.33 | 0.218 |
| 36 | `CCC1C(=O)NCCN1C(=O)Nc1cccc(C)n1` (configuration not stated) | - | 4.032 |
| 37 | `CCOCCOc1cc(C)ccc1CN` | 50.95 | 21.4 |
| 38 | `COCCN(CCOC)c1ccnc(C#N)c1` | 3.868 | - |
| 39 | `CC(C)(C#N)CCCSc1cnn[nH]1` | 25.99 | - |
| 40 | `CC(C)c1cccc(S(=O)(=O)N2CCCC2CN)c1` (configuration not stated) | 64.67 | - |
| 41 | `O=C(NCCNCc1ccccc1)c1ccco1` | 2.669 | 1.394 |
| 42 | `Cc1ncc(Br)cc1N` | -8.421 | - |
| 43 | `COCCN(Cc1ccsc1)C(=O)CC1CCNC1` (configuration not stated) | 65.31 | - |
| 44 | `OCCCN1CCCN(Cc2ccc(F)cc2)CC1` | 60.35 | - |
| 45 | `O=C(NCc1cccs1)c1cnccn1` | 71.56 | 51.97 |
| 46 | `O=S1(=O)CCC(CNc2ccnc3ccc(Cl)cc23)C1` (configuration not stated) | -37.55 | - |
| 47 | `Cc1ccc2c(c1)nc(CO)n2C` | -1.081 | -10.84 |
| 48 | `Cc1noc(C(C)N2CCn3ccnc3C2)n1` (configuration not stated) | 4.218 | - |
| 49 | `NCc1ccccc1S(N)(=O)=O` | -5.198 | - |
| 50 | `CC(C)CC1(CO)CCCN1` (configuration not stated) | - | -8.821 |
| 51 | `CC(C)(C)OC(=O)N1CCN(C(=O)CN)CC1` | - | -6.769 |
| 52 | `N#Cc1ccccc1CN1CCC2(CC1)[C@H](O)C[C@@H]2O` | -1.407 | - |
| 53 | `NCCc1ncccc1F` | 1.658 | - |
| 54 | `Cc1ccnc(NC(=O)N2CCCC(CO)C2)c1` (configuration not stated) | 17.51 | - |
| 55 | `NC(=O)COc1cccc(C(=O)N2CCCCCC2)c1` | 12.74 | - |
| 56 | `CCNC(=O)NCCOC(=O)c1cccc2cc[nH]c12` | 52.58 | - |
| 57 | `CCC(NC(=O)Cn1nc(C)c(Cl)c1C)[C@H]1C[C@H](O)C1` (some centres not stated) | - | 6.689 |
| 58 | `Cc1nnc(SCc2ccc(Cl)s2)n1CC(N)=O` | 53.23 | 37.33 |
| 59 | `CN(C(=O)c1ccc(Cl)cc1)c1nncs1` | -11.05 | - |
| 60 | `CC(=O)NC(Cc1ccc(O)cc1)C(C)=O` (configuration not stated) | 8.023 | - |
| 61 | `NCc1csc2nccn12` | -0.4396 | - |
| 62 | `N#Cc1ccccc1CN1CCn2ccnc2C1` | -11.65 | - |
| 63 | `COCCC(=O)NC(C)Cc1ccc(O)cc1` (configuration not stated) | - | 7.224 |
| 64 | `O=C(Cn1ccnc1)Nc1ccc(F)cc1` | -0.03455 | -14.54 |
| 65 | `CCC(C)NC(=O)c1cnn(-c2ccccc2)n1` (configuration not stated) | -4.801 | - |
| 66 | `CCCn1nc(C(=O)NCc2ccccn2)ccc1=O` | 0.9131 | -5.617 |
| 67 | `CC(N)C(=O)Nc1nc(-c2ccc(O)cc2)cs1` (configuration not stated) | - | 11.65 |
| 68 | `COc1ccc(C(N)c2ccc(OC)cc2OC)cc1` (configuration not stated) | 104.8 | 53.84 |

The first 4 entries again:

* CCC(O)COc1cc(C)ccc1C(N)=O (configuration not stated) | Mtb glucose medium: 12.48%
* c1ccc(CNC2CCCNCC2)cc1 (configuration not stated) | Mtb cholesterol medium: 12.87%
* COCCN1CCCC(C(=O)NCC(F)(F)F)C1 (configuration not stated) | Mtb glucose medium: -12.27%
* CNC(=O)CCC(C)(C)NC(=O)c1ccc(COC)s1 | Mtb cholesterol medium: -0.6443%